Compound potency records, mixed from different reports. Data source: NIAID ChemDB in PubChem.

Shared fields: tests in culture; agent: HIV-1; measure: EC50

ECn: concentration that inhibits the pathogen or its effect by n%. a–b is a range or a potency band. Blank or dashed fields: not listed here. Conditions beyond the fields shown may differ between rows.

smiles,strain,method,mutations,cells,conditions,result
CCCCCOC(=O)[C@@H](C)NP(=O)(CO[C@H](C)Cn1cnc2c(N)ncnc21)NC[C@H](C)C(=O)OC(C)C,-,fluorescence,-,MT4-GFP,10% human serum,7.3 µM
O=c1ccn(Cc2cn(COCCO)nn2)c(=O)[nH]1,IIIB,cytopathic effect,-,MT-4,-,>100 µg/mL
CC(=O)O[C@H]1C[C@]2(C)O[C@]3(COC(=O)C3)[C@@H](OC(=O)c3ccccc3)[C@H](OC(C)=O)[C@]2(C)[C@H]2CCC[C@]3(CO3)[C@]12C,IIIB,MTT / ELISA,-,C8166,-,77.53 µg/mL
COc1cc2ccccc2cc1/C=N/NC(=O)c1cc(O)c(O)c(O)c1,IIIB,cytopathic effect / absorbance,-,CEM-SS,-,>10 µM
Cc1cn([C@H]2C[C@H](O)[C@@H](CO)O2)c(=O)n(C)c1=O,IIIB,microscopy,-,CEM,-,>400 µg/mL
CCCCCCCCCCCCCCCC(=O)Oc1ccc(OP(=O)(OCc2ccc(OC(=O)CCCC)cc2)OP(=O)(O)OP(=O)(O)OC[C@@H]2C=C[C@H](n3cc(C)c(=O)[nH]c3=O)O2)cc1,IIIB,syncytia / visual reading,-,CEM,-,0.15 µM
CC(C)OC(=O)C[C@H](N[P@](=O)(CO[C@H](C)Cn1cnc2c(N)ncnc21)NC(C)(C)C(=O)OC(C)C)C(C)C,-,fluorescence,-,MT4-GFP,10% human serum,590 µM
Cc1nc(C)c(C(=O)NC[C@H](O)[C@@]23CC[C@]4(C)[C@H](CC[C@@H]5[C@@]6(C)CC[C@H](OC(=O)[C@H]7C[C@@H](C(=O)O)C7(C)C)C(C)(C)[C@@H]6CC[C@]54C)C2=C(C(C)C)C(=O)C3)s1,92HT599,p24 / ELISA,-,MT-2,-,<1 µM
O=C1Cc2c(cccc2-c2ccc(F)cc2F)C(=O)N1O,IIIB,cytopathic effect / absorbance,-,CEM-SS,-,>10 µM
COc1cccc(CN(C)c2cccc(-c3ccc4ccn(Cc5cccc(C(=O)O)c5)c4c3)c2)c1,IIIB,entry / luminescence,-,MAGI-CCR5,-,1.6 µM
CC(C)C1=C2[C@H]3CC[C@@H]4[C@@]5(C)CC[C@H](OC(=O)[C@H]6C[C@@H](C(=O)O)C6(C)C)C(C)(C)[C@@H]5CC[C@@]4(C)[C@]3(C)CC[C@@]2(CCNCc2ccc(Cl)cc2O[C@H]2CCOC2)CC1=O,92HT599,p24 / ELISA,-,MT-2,-,<1 µM
CC(=O)O[C@@H]1CC[C@]2(CO2)[C@]2(C)[C@@H](OC(C)=O)[C@H](OC(C)=O)[C@]3(C)O[C@]4(COC(=O)C4)[C@@H](OC(=O)c4ccccc4)C[C@]3(C)[C@@H]12,IIIB,MTT / ELISA,-,C8166,-,79.17 µg/mL
CCCc1cc(=O)oc2c3c(c4c(c12)OC(C)(C)CC4)O[C@H](C)[C@@H](C)C3=O,-,cytopathic effect / XTT,RT-P236L,-,-,6.76 µM
O=C1Cc2cc(-c3cccs3)ccc2C(=O)N1O,IIIB,cytopathic effect / absorbance,-,CEM-SS,-,>10 µM
O=C(COc1ccc(Cl)cc1C(=O)c1ccccc1)Nc1ccc(-n2cncn2)cc1,IIIB,cytopathic effect / propidium iodide,-,MT-4,-,0.011–0.1 µM
CCCCCCCCCCCCCCC(=O)Oc1ccc(OP(=O)(OCc2ccc(OC(=O)CC)cc2)OP(=O)(O)OP(=O)(O)OC[C@@H]2C=C[C@H](n3cc(C)c(=O)[nH]c3=O)O2)cc1,IIIB,syncytia / visual reading,-,CEM,-,0.24 µM
Cc1cn([C@H]2C[C@H](F)[C@@H](CO)O2)c(=O)[nH]c1=O,IIIB,microscopy,-,CEM,-,0.002 µg/mL
CCCCC(=O)Oc1ccc(COP(=O)(Oc2ccc(OC(=O)CCC(=O)OCCOCCOCCOC)cc2)OP(=O)(O)OP(=O)(O)OC[C@@H]2C=C[C@H](n3cc(C)c(=O)[nH]c3=O)O2)cc1,IIIB,syncytia / visual reading,-,CEM/TK-,-,16 µM
CC(C)COC(=O)[C@H](C)NP(=O)(CO[C@H](C)Cn1cnc2c(N)ncnc21)NC[C@H](C)C(=O)OC(C)C,-,fluorescence,-,MT4-GFP,10% human serum,16.6 µM
C#CCn1cnc2c(=O)[nH]c(NC(C)=O)nc21,IIIB,cytopathic effect,-,MT-4,-,>100 µg/mL
CNCc1ccc2c(c1)[C@H](NC(=O)C(=O)Nc1ccc(Cl)c(F)c1)[C@@H](CN=C(N)N)C2,JR-FL,luciferase / entry,-,Cf2Th-CD4/CCR5,-,>100 µM
CC[C@H](C)[C@H](NC(=O)C[C@H](O)[C@H](CC(C)C)NC(=O)[C@H](CC(N)=O)NC(=O)OCc1ccccc1)C(N)=O,IIIB,ELISA / antigen,-,MT-4,-,>1000 µM
Cc1cc2[nH]cnc2cc1NC(=O)COc1ccc(Cl)cc1C(=O)c1cc(F)cc(C(F)(F)F)c1,HXB2,β-galactosidase,RT-G190E,HeLa + HELA CD4+,-,<0.01 µM
CC(C)C1=C2[C@H]3CC[C@@H]4[C@@]5(C)CC[C@H](OC(=O)[C@H]6C[C@@H](C(=O)O)C6(C)C)C(C)(C)[C@@H]5CC[C@@]4(C)[C@]3(C)CC[C@@]2(CCNCc2ccncc2)CC1=O,92HT599,p24 / ELISA,-,MT-2,-,<1 µM
CC(C)OC(=O)[C@H](C)CNP(=O)(CO[C@H](C)Cn1cnc2c(N)ncnc21)N[C@H](C)C(=O)OC(C)C,-,fluorescence,-,MT4-GFP,10% human serum,435 µM
O=C1Cc2cc(-c3ccco3)ccc2C(=O)N1O,IIIB,cytopathic effect / absorbance,-,CEM-SS,-,>10 µM
Cc1cc(C#N)cc(C(=O)c2cc(Cl)ccc2OCC(=O)Nc2ccc(OCCCN3CC=CC3)cc2C)c1,HXB2,β-galactosidase,RT-V108I Y181C,HeLa + HELA CD4+,-,<0.01 µM
CCc1c(CC2CCCCC2)nc(SCC(=O)c2ccc(OC(=O)c3ccccc3)cc2)[nH]c1=O,IIIB,MTT / syncytia,-,C8166,-,0.0089 µM
Cc1cn([C@H]2C[C@H](N=[N+]=[N-])[C@@H](COP(=O)(O)CI)O2)c(=O)[nH]c1=O,GKV-4046,MTT / p24,-,MT-4,-,5 µM
CCCCCOC(=O)C(C)(C)NP(=O)(CO[C@H](C)Cn1cnc2c(N)ncnc21)N[C@H](C)CC(=O)OC(C)C,-,fluorescence,-,MT4-GFP,10% human serum,1.5 µM
CC(C)C1=C2[C@H]3CC[C@@H]4[C@@]5(C)CC[C@H](OC(=O)[C@H]6C[C@@H](C(=O)O)C6(C)C)C(C)(C)[C@@H]5CC[C@@]4(C)[C@]3(C)CC[C@@]2([C@@H](O)CNC(=O)C(C)(C)NC(=O)c2ccc(Cl)c(Cl)c2)CC1=O,92HT599,p24 / ELISA,-,MT-2,-,<1 µM
N#Cc1cc(Cl)cc(Oc2c(Br)ccc(CC(=O)Nc3ccc(S(N)(=O)=O)cc3Cl)c2F)c1,-,-,Y188L,MT-4,-,0.034 µM
CC(C)C1=C2C(CC1=O)[C@@H](C(=O)NCCN1CCC(S(C)(=O)=O)CC1)C[C@@H]1[C@@H]2CC[C@@H]2C3[C@H](C)C=C(C4=CCC(C(=O)O)CC4)C(C)(C)[C@@H]3CC[C@]21C,NL4-3,MTS / propidium iodide,V370A,MT-4,-,>25 µM
COC(=O)c1cccc(Cn2ccc3cc(F)c(-c4ccc5ccn(Cc6cccc(C(=O)O)c6)c5c4)cc32)c1,IIIB,entry / luminescence,-,MAGI-CCR5,-,0.4 µM
OB(O)CCCCn1cnc2c(Cl)ncnc21,IIIB,plaque count,-,CEM + CEM-SS,-,7.7 µM
C[C@@H]1CCO[C@H]2Cn3cc(C(=O)NCc4ccc(F)cc4F)c(=O)c(O)c3C(=O)N12,NL4-3,GFP,T97A E138K G140S Q148H,CEM-GXR,-,0.073 µM
CC[C@H](C)[C@H](NC(=O)C[C@H](O)[C@H](CC(C)C)NC(=O)[C@@H](N)CC(N)=O)C(N)=O,IIIB,ELISA / antigen,-,MT-4,-,>1000 µM
CC(=O)OCCOCn1cc(Cn2cc(Br)c(=O)[nH]c2=O)nn1,IIIB,cytopathic effect,-,MT-4,-,>100 µg/mL
CCCCCCCCCCCCCCC(=O)Oc1ccc(OP(=O)(OCc2ccc(OC(=O)CCCCCC)cc2)OP(=O)(O)OP(=O)(O)OC[C@@H]2C=C[C@H](n3cc(C)c(=O)[nH]c3=O)O2)cc1,IIIB,syncytia / visual reading,-,CEM/TK-,-,0.74 µM
Cc1cc(C)cc(C(=O)c2cc(Cl)ccc2OCC(=O)Nc2ccc(S(N)(=O)=O)cc2C)c1,HXB2,β-galactosidase,RT-V106I,HeLa + HELA CD4+,-,<0.01 µM
Nc1nc(NC2CC2)c2ncn([C@H]3C=C[C@@H](CO)C3)c2n1,-,GFP / reporter gene / fluorescence,-,Jurkat cells,pseudotyped,0.026 µM
Cc1cc(OCCCS(N)(=O)=O)ccc1NC(=O)COc1ccc(Cl)cc1C(=O)c1cc(F)cc(C(F)(F)F)c1,HXB2,β-galactosidase,RT-Y181C,HeLa + HELA CD4+,-,<0.01 µM
O=C(NCc1c(F)cc(F)cc1F)c1cn2c(c(O)c1=O)C(=O)N1[C@H]3CC[C@H](C3)O[C@@H]1C2,NL4-3,GFP,-,CEM-GXR,-,0.0015 µM
CCCCCOC(=O)C(C)(C)N[P@@](=O)(CO[C@H](C)Cn1cnc2c(N)ncnc21)N[C@@H](CC(=O)OC(C)C)C(C)C,-,fluorescence,-,MT4-GFP,10% human serum,28.9 µM
CC(=O)N[C@@H](CCC(N)=O)C(=O)N[C@@H](C)C(=O)N[C@@H](CC(C)C)[C@@H](O)CC(=O)N[C@H](C(N)=O)C(C)C,IIIB,ELISA / antigen,-,MT-4,-,500 µM
CC(C)C1=C2[C@H]3CC[C@@H]4[C@@]5(C)CC[C@H](OC(=O)[C@H]6C[C@@H](C(=O)O)C6(C)C)C(C)(C)[C@@H]5CC[C@@]4(C)[C@]3(C)CC[C@@]2([C@@H](O)CNC(=O)c2csc(N)n2)CC1=O,92HT599,p24 / ELISA,-,MT-2,-,<1 µM
CC(C)CN(C[C@@H](O)[C@H](Cc1ccccc1)NC(=O)O[C@H]1CCOC1)S(=O)(=O)c1ccc(N)cc1,r13205,reporter gene,-,MT-4,-,1601 nM
CC(C)C1=C2C(CC1=O)[C@@H](C(=O)NCCN(CCN(C)C)Cc1ccc(Cl)cc1)C[C@@H]1[C@@H]2CCC2C3C(CC[C@]21C)C(C)(C)C(C1=CC[C@H](C(=O)O)CC1)=C[C@H]3C,NL4-3,MTS / propidium iodide,V370A,MT-4,-,>22 µM
CC(C)C1=C2[C@H]3CC[C@@H]4[C@@]5(C)CC[C@H](OC(=O)[C@H]6C[C@@H](C(=O)O)C6(C)C)C(C)(C)[C@@H]5CC[C@@]4(C)[C@]3(C)CC[C@@]2([C@@H](O)CNCC2(NC(=O)c3ccc(Cl)cc3)CCCC2)CC1=O,92HT599,p24 / ELISA,-,MT-2,-,<1 µM
CC(=O)Nc1nc2c(ncn2Cc2cn(COCCO)nn2)c(=O)[nH]1,IIIB,cytopathic effect,-,MT-4,-,>100 µg/mL
O=C1Cc2c(cccc2-c2ccco2)C(=O)N1O,IIIB,cytopathic effect / absorbance,-,CEM-SS,-,>10 µM
Cc1cc(S(N)(=O)=O)ccc1NC(=O)COc1ccc(Cl)cc1C(=O)c1cccc(C#N)c1,HXB2,β-galactosidase,RT-P225H,HeLa + HELA CD4+,-,<0.01 µM
CC(=O)OCCOCn1cc(Cn2cc(I)c(=O)[nH]c2=O)nn1,IIIB,cytopathic effect,-,MT-4,-,>100 µg/mL
C[C@H]1[C@H](O)[C@@H](C)/C=C/C=C/C=C/C=C/C=C/C=C/C=C/[C@H](O[C@@H]2O[C@H](C)[C@@H](O)[C@H](N)[C@@H]2O)C[C@@H]2O[C@](O)(C[C@@H](O)C[C@@H](O)CC[C@H](O)[C@@H](O)C[C@@H](O)CC(=O)O[C@H]1C)C[C@H](O)[C@H]2C(=O)O,YBF30 GROUP N R5 (NSI),p24 / RT activity,-,PBMC,-,0.7 µM
O=C1Cc2cc(-c3csc4ccccc34)ccc2C(=O)N1O,IIIB,cytopathic effect / absorbance,-,CEM-SS,-,>10 µM
CCCCCCOC(=O)C(C)(C)NP(=O)(CO[C@H](C)Cn1cnc2c(N)ncnc21)N[C@@H](CC(=O)OC(C)C)C(C)C,-,fluorescence,-,MT4-GFP,50% human serum,58.5 µM

For reference, 3 entries again:

| smiles | strain | method | mutations | cells | conditions | result |
|---|---|---|---|---|---|---|
| CCCCCCCCCCCCCCCC(=O)Oc1ccc(OP(=O)(OCc2ccc(OC(=O)CCCC)cc2)OP(=O)(O)OP(=O)(O)OC[C@@H]2C=C[C@H](n3cc(C)c(=O)[nH]c3=O)O2)cc1 | IIIB | syncytia / visual reading | - | CEM | - | 0.15 µM |
| COc1cccc(CN(C)c2cccc(-c3ccc4ccn(Cc5cccc(C(=O)O)c5)c4c3)c2)c1 | IIIB | entry / luminescence | - | MAGI-CCR5 | - | 1.6 µM |
| CC(C)C1=C2C(CC1=O)[C@@H](C(=O)NCCN1CCC(S(C)(=O)=O)CC1)C[C@@H]1[C@@H]2CC[C@@H]2C3[C@H](C)C=C(C4=CCC(C(=O)O)CC4)C(C)(C)[C@@H]3CC[C@]21C | NL4-3 | MTS / propidium iodide | V370A | MT-4 | - | >25 µM |